Patent US5688773A, “Method of selectively destroying neoplastic cells” (priority 1994, dated 1997)
Like-named read-outs stand apart in the source and are kept apart here.

Tests used:
[1] = rat plasma; cited from earlier work
[2] = human plasma; cited from earlier work
C6 cells [3] = experiment: Cell proliferation assay; format: cell-based, rat; conditions: 0.5 mM, four days
Procedure: Cell proliferation assays: For cell proliferation assays, cells (2×10^5 per dish, unless otherwise noted) were plated onto 10 cm dishes. Twenty-four hours later, CPA, T4P, or DCPA were added to a final concentration of 0.5 mM. Incubations were continued for four days and cell numbers were assayed using a Coulter counter (Coulter Electronics Inc.), after harvesting in trypsinEDTA.

C6 cells [4] = experiment: Trypsinization and replating assay; format: cell-based, rat; conditions: Table V panel B; survivors of panel A replated, nine days
Procedure: Trypsinization and replating assay: To determine the temporal kinetics of CPA-mediated cytotoxicity, 2×10^6 cells were plated onto each 10 cm dish. Twenty-four hours later, 0.5 mM CPA was added and cells were incubated for the times indicated in each figure. Cells were then trypsinized and replated at a density of 2×10^5 cells/10 cm dish. Nine days later, cell numbers were evaluated by Coulter counting.

C6-P450 cells [5] = experiment: Trypsinization and replating assay; format: cell-based, rat
[6] = system: C6 cells exposed to CM from C6; experiment: C6 colony formation after conditioned medium from drug-exposed cells; format: cell-based, rat; conditions: Table V panel C; CM from treated C6 cultures
C6-P450 cells [7] = experiment: Cell proliferation assay; conditions: 0.5 mM, four days
[8] = system: C6 cells exposed to CM from C6-P450; experiment: C6 colony formation after conditioned medium from drug-exposed cells

| Compound | t1/2 [1] | t1/2 [2] | inhibition in cell proliferation compared to untreated cells (C6 cells [3]) | Cell proliferation assay, number of cells (C6 cells [3]; Table V panel A) | Trypsinization and replating assay, cell count (C6 cells [4]) | Proliferation of treated cells after replating (C6-P450 cells [5]; 0.5 mM, trypsinization and replating) | Trypsinization and replating assay, cell count (C6-P450 cells [5]; Table V panel B, survivors of panel A replated, nine days) | Secretion effect, C6 colony number [6] | inhibition of proliferation compared to untreated cells (C6-P450 cells [7]; 5760 min) | Cell proliferation assay, number of cells (C6-P450 cells [7]; Table V panel A) | Toxicity of conditioned medium to C6 cell growth / colony formation ([8]; CM from treated C6-P450 cells, nine days) | Secretion effect, C6 colony number ([8]; Table V panel C, CM from treated C6-P450 cultures) |
| --- | --- | --- | --- | --- | --- | --- | --- | --- | --- | --- | --- | --- |
| O=P1(N(CCCl)CCCl)NC(O)CCO1 (stereo not drawn) | 5.2 min | 3.3 min |  |  |  |  |  |  |  |  |  |  |
| trans-4-phenylcyclophosphamide |  |  | 20% | 16.6±0.87 ×10^6 | 19±1.03 | completely inhibited | 0.31±0.07 | 277±1.8 | 79% | 5.59±0.07 ×10^6 | minimal effects | 279±3 |
